US6958151B2 (priority 2002, dated 2005)

Sequences of proteins named here, by UniProt entry; tags and fusion partners are left off. A change or cut given only in a name is not applied to a line headed by its entry.
UniProt P29837: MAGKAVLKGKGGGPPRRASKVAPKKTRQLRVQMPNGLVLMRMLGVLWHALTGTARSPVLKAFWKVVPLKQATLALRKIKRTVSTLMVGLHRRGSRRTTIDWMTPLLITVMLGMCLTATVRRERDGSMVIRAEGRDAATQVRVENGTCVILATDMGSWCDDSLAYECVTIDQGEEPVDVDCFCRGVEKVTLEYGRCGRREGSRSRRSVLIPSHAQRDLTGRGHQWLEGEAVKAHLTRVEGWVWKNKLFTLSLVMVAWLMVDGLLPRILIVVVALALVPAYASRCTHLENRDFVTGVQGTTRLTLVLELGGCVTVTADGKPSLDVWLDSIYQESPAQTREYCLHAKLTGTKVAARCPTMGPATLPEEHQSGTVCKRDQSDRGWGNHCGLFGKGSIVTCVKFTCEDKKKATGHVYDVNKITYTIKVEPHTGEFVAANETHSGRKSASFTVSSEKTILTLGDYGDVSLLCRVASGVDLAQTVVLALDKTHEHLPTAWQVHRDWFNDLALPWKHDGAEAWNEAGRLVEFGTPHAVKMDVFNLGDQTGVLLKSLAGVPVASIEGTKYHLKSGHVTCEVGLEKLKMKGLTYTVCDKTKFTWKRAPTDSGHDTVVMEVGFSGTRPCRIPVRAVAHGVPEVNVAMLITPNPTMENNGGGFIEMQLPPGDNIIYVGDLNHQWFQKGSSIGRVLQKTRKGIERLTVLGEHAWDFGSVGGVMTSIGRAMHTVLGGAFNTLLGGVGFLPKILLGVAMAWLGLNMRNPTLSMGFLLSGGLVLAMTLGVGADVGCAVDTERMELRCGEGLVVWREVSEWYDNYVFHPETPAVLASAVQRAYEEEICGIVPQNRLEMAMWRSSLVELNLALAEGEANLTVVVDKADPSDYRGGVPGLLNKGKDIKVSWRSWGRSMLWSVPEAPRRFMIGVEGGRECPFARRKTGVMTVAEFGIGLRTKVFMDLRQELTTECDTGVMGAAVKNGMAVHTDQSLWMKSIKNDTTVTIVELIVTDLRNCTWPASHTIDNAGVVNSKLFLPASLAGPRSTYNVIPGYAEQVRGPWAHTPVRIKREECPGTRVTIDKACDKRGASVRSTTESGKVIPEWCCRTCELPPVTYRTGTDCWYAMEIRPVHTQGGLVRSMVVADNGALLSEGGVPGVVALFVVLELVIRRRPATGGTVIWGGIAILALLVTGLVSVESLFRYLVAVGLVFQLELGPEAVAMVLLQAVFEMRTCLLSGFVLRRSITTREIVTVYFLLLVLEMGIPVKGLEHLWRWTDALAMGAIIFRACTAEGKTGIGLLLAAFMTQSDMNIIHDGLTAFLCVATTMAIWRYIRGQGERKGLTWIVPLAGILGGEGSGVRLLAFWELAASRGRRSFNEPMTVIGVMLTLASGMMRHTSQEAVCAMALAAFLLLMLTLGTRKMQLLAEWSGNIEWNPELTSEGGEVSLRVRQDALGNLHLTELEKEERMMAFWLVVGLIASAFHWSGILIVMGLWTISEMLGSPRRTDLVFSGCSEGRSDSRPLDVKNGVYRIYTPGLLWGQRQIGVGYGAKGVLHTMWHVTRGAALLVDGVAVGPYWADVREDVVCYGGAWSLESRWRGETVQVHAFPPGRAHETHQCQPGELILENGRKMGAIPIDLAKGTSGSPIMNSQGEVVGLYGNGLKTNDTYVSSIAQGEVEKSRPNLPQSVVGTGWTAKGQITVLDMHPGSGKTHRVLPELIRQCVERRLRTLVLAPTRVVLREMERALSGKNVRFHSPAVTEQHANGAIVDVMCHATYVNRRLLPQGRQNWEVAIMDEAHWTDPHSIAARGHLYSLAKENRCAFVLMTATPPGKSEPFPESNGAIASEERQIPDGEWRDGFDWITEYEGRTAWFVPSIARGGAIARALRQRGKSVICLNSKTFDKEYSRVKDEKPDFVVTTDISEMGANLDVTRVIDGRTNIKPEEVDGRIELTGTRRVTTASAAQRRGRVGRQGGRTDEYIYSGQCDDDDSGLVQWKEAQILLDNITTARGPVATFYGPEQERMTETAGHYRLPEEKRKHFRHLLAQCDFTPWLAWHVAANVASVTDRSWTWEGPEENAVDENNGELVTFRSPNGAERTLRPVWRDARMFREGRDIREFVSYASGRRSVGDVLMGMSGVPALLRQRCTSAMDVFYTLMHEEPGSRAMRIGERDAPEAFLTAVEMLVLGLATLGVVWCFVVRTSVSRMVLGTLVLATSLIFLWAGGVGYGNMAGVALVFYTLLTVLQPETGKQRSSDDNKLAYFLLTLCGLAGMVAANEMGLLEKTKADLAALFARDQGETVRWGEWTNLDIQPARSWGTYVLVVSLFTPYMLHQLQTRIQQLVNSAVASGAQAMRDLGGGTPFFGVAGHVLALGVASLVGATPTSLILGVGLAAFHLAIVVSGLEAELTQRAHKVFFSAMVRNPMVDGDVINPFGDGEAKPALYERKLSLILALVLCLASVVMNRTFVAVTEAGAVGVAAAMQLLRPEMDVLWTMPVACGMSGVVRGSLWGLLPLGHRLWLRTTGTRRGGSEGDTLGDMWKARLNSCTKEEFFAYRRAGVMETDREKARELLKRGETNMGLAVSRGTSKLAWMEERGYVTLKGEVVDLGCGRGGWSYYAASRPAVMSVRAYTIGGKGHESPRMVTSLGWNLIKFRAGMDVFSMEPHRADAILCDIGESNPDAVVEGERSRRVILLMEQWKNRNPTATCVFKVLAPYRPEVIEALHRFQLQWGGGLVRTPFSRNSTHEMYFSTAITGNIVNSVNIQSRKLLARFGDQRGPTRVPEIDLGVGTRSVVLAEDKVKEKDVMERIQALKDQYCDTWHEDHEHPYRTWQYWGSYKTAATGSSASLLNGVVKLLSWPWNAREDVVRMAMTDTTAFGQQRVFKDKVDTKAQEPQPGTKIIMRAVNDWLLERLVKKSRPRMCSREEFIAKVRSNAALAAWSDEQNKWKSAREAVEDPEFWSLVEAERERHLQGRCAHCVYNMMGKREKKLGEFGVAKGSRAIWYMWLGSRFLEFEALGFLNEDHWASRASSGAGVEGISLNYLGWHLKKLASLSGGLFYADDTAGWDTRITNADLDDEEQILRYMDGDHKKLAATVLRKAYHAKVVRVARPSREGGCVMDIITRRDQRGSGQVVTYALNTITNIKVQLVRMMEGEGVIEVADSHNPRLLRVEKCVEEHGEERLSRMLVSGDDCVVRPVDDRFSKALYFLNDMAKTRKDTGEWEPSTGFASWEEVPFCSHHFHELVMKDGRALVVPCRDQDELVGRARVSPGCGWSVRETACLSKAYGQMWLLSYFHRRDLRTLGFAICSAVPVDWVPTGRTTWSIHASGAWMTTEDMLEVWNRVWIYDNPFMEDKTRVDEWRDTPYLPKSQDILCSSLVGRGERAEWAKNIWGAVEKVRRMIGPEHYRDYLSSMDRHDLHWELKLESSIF

Molecular target: LGT-E-D3 (Langat virus, UniProt P29837)
Assay: Phage display selection by binding to E-D3

Sequence | selected by binding (phage display)
RCCGYACKEGKNCR | selected by binding to LGT-E-D3
RCCTAVCKEGKKCR | selected by binding to LGT-E-D3
RCCVLACKEGKKCR | selected by binding to LGT-E-D3
